A mixed list of measured activities; the numbers were collected in NIAID ChemDB.

MIC bound comes from a single tested concentration. Percent inhibition refers to the dose given; in toxicity tests it is the harm to the cells. ICn: concentration for n% inhibition. Conditions beyond the fields shown may differ between rows. Blank or dashed fields: not listed here.

structure,test,species,strain,protein,method,endpoint,dose,result
Cc1cc(S(=O)(=O)c2ccc(N)cc2)ccc1N,culture,Mycobacterium tuberculosis,H37Rv,-,-,MIC,-,100 µg/mL
OCc1ccc(-c2cncc(N3CCN(c4cccc(Cl)c4)CC3)n2)cc1,target,Cytomegalovirus,-,UL97 kinase,-,inhibition,1 µM,<50%
CN(C)c1ccc(/C=C/C=N/NC(N)=O)cc1,culture,Mycobacterium tuberculosis,H37Rv,-,-,MIC,-,>100 µg/mL
O=C1CCCCCCC/C=C\CCCCCCO1,culture,Mycobacterium tuberculosis,H37Rv,-,BACTEC,inhibition,12.5 µg/mL,18%
O=c1cc[nH]c2ccccc12,culture,Mycobacterium tuberculosis,H37Rv,-,-,MIC,-,>100 µg/mL
Cn1nc(-c2ccccc2NC(=O)C(F)(F)F)c(=O)n(C)c1=S,culture,Mycobacterium tuberculosis,H37Rv,-,BACTEC,inhibition,12.5 µg/mL,33%
O=C(O)c1ccccc1OCCOCC[n+]1ccccc1,culture,Mycobacterium tuberculosis,H37Rv,-,-,MIC,-,>100 µg/mL
CCOC(=O)NC(=Nc1cccc(C(=O)c2ccc3nc(NC(=O)OCC)[nH]c3c2)c1)NC(=O)OCC,culture,Mycobacterium tuberculosis,H37Rv,-,BACTEC,inhibition,0.5 µM,0%
CC(=O)c1cccc(-c2cncc(N3CCN(c4cccc(C(F)(F)F)c4)CC3)n2)c1,target,Cytomegalovirus,-,UL97 kinase,-,inhibition,10 µM,>15%
O=C(O)COc1ccc(Cl)cc1,culture,Mycobacterium tuberculosis,H37Rv,-,-,MIC,-,>100 µg/mL
CN1CCN(CCN2CCN(CCCN3c4ccccc4Sc4ccc(Cl)cc43)CC2)C1=O,culture,Mycobacterium tuberculosis,H37Rv,-,BACTEC,inhibition,12.5 µg/mL,5%
Cc1ccc(Nc2cc(S(=O)(=O)[O-])c3c4c(cc(=O)n3C)-c3ccccc3C(=O)c24)cc1.[Na+],culture,Mycobacterium tuberculosis,H37Rv,-,-,MIC,-,100 µg/mL
Cn1cccc1C1NC(=O)C(c2cccn2C)NC1=O,culture,Mycobacterium tuberculosis,H37Rv,-,BACTEC,MIC bound,-,>12.5 µg/mL
FC(F)(F)c1cccc(N2CCN(c3cncc(-c4cc5ccccc5s4)n3)CC2)c1,target,Cytomegalovirus,-,UL97 kinase,-,IC50,-,<10 µM
Nc1c(C(=O)Nc2ccc(S(N)(=O)=O)cc2)[n+]([O-])c2ccccc2[n+]1[O-],culture,Mycobacterium tuberculosis,H37Rv,-,BACTEC,MIC bound,-,>12.5 µg/mL
COc1ccccc1N1CCN(c2cncc(-c3ccc(C)cc3)n2)CC1,target,Cytomegalovirus,-,UL97 kinase,-,inhibition,10 µM,>15%
NC(=O)COc1ccccc1,culture,Mycobacterium tuberculosis,H37Rv,-,-,MIC,-,>100 µg/mL
COc1cccc(N2CCN(c3cncc(-c4ccoc4)n3)CC2)c1,target,Cytomegalovirus,-,UL97 kinase,-,IC50,-,<100 µM
CC[C@H](C)[C@@H]1NC(=O)[C@@H]2CCCN2C(=O)[C@@H](CC(C)C)OC(=O)CCNC(=O)[C@@H](C)N(C)C(=O)[C@H](C(C)C)N(C)C1=O,culture,Mycobacterium tuberculosis,H37Rv,-,BACTEC,inhibition,12.5 µg/mL,-8%
OCCCc1ccccn1,culture,Mycobacterium tuberculosis,H37Rv,-,-,MIC,-,>100 µg/mL
CC(=O)N[C@@H]1[C@@H](OC(C)=O)[C@H](OC(C)=O)[C@@H](COC(C)=O)O[C@H]1NC(=S)NCC(=O)c1ccc(C)cc1,culture,Mycobacterium tuberculosis,H37Rv,-,resazurin,inhibition,6.25 µg/mL,-6%
CC(=O)Oc1cc(I)ccc1C(=O)O,culture,Mycobacterium tuberculosis,H37Rv,-,-,MIC,-,>100 µg/mL
FC(F)(F)c1cccc(N2CCN(c3cncc(-c4ccoc4)n3)CC2)c1,target,Cytomegalovirus,-,UL97 kinase,-,IC50,-,<100 µM
Cc1c2cnccc2c(C)c2c1c1ccccc1n2CCCCCC#N,culture,Mycobacterium tuberculosis,H37Rv,-,resazurin,inhibition,6.25 µg/mL,99%
Cc1ccc(N2CCN(c3cncc(-c4ccc(N(C)C)cc4)n3)CC2)cc1,target,Cytomegalovirus,-,UL97 kinase,-,inhibition,10 µM,>15%
ClCCOc1ccccc1,culture,Mycobacterium tuberculosis,H37Rv,-,-,MIC,-,>100 µg/mL
Clc1ccc(N2CCN(c3cncc(-c4ccc5ccccc5c4)n3)CC2)cc1,target,Cytomegalovirus,-,UL97 kinase,-,inhibition,1 µM,<50%
C=CCN1COc2c(cc3c4c(cccc24)C(=O)O3)C1,culture,Mycobacterium tuberculosis,H37Rv,-,BACTEC,MIC bound,-,>12.5 µg/mL
FC(F)(F)c1cc(-c2cncc(N3CCN(c4ccncc4)CC3)n2)cc(C(F)(F)F)c1,target,Cytomegalovirus,-,UL97 kinase,-,inhibition,10 µM,>15%
Fc1ccc(N2CCCCC2)c(NC(=S)c2ccncc2)c1,host protein,-,-,LKB1,kinase activity,inhibition,10 µM,-3%

Repeating the final 4 entries:

Clc1ccc(N2CCN(c3cncc(-c4ccc5ccccc5c4)n3)CC2)cc1 ; test: target ; species: Cytomegalovirus ; protein: UL97 kinase ; endpoint: inhibition ; dose: 1 µM ; result: <50%
C=CCN1COc2c(cc3c4c(cccc24)C(=O)O3)C1 ; test: culture ; species: Mycobacterium tuberculosis ; strain: H37Rv ; method: BACTEC ; endpoint: MIC bound ; result: >12.5 µg/mL
FC(F)(F)c1cc(-c2cncc(N3CCN(c4ccncc4)CC3)n2)cc(C(F)(F)F)c1 ; test: target ; species: Cytomegalovirus ; protein: UL97 kinase ; endpoint: inhibition ; dose: 10 µM ; result: >15%
Fc1ccc(N2CCCCC2)c(NC(=S)c2ccncc2)c1 ; test: host protein ; protein: LKB1 ; method: kinase activity ; endpoint: inhibition ; dose: 10 µM ; result: -3%